## Sequence variants of PSTVd loop 6 after infection

The pool varies loop 6 of the PSTVd intermediate strain in the pattern UNNNCGNNNG; wild type is UGACCGCGAG (upper and lower strand joined, each 5' to 3', the first 5 letters being the upper strand, closing pairs included).

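A pool of all variants was put on leaves of three Nicotiana benthamiana plants. Samples came from the inoculated region at 5 days, the leaf margin at 10 and upper systemic leaves at 12.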

Numbers give reads per thousand; 0 = not seen among the reads, higher = more abundant. Each site shows the three plants. "Pool" is the share in the plasmid pool used as inoculum, on the same scale. The inoculated region was read from the minus strand, the other sites from the plus strand. Samples held 36,220 to 57,551 reads, so the smallest values rest on one or two reads. Sequences that differ at fixed positions probably stem from PCR or sequencing errors, and defective variants can be carried along by functional ones. For reference, wild type rose from 20.7 per thousand in the pool to 195, 198, 203 (inoculated region), 629, 591, 734 (leaf margin) and 942, 870, 868 (systemic leaves).

sequence,pool,inoculated region,leaf margin,systemic leaves
UAACCGUGCG,0.235,0.747 / 0.647 / 0.535,0.0276 / 0.177 / 0.0696,0 / 0 / 0
UAACCGUGGG,0.170,0.139 / 0.0719 / 0.0184,0 / 0 / 0,0 / 0 / 0
UAACCGUGUG,0.275,0.243 / 0.0898 / 0.0922,0.0276 / 0 / 0.0232,0 / 0 / 0
UAACCGUUAG,0.301,0.730 / 0.808 / 0.443,0 / 0.101 / 0.0464,0.0180 / 0.0202 / 0.0205
UAACCGUUCG,0.209,0.139 / 0.0359 / 0.166,0.110 / 0 / 0,0 / 0 / 0
UAACCGUUGG,0.235,0.261 / 0.162 / 0.166,0 / 0 / 0.0232,0 / 0 / 0
UAACCGUUUG,0.314,0.104 / 0.0180 / 0.148,0.0276 / 0 / 0.0696,0 / 0 / 0
UAACCUACUA,0.0131,0 / 0 / 0,0 / 0 / 0,0 / 0 / 0
UAAGCAAAGG,0.0131,0 / 0 / 0,0 / 0 / 0,0 / 0 / 0
UAAGCGAAAG,0.183,0.122 / 0.0719 / 0.0369,0 / 0 / 0,0 / 0 / 0
UAAGCGAACG,0.301,0.0869 / 0.0539 / 0.111,0 / 0 / 0,0 / 0 / 0.0205
UAAGCGAAGG,0.183,0.0521 / 0.108 / 0.0184,0 / 0 / 0,0 / 0 / 0
UAAGCGAAUG,0.235,0.139 / 0.126 / 0.0738,0 / 0 / 0,0 / 0 / 0
UAAGCGACAG,0.275,0.104 / 0.0719 / 0.0738,0 / 0 / 0.0232,0 / 0 / 0
UAAGCGACCG,0.170,0.0521 / 0.0719 / 0.0553,0 / 0 / 0,0 / 0 / 0
UAAGCGACGG,0.196,0.0521 / 0.0359 / 0.111,0.0276 / 0 / 0.0464,0 / 0 / 0
UAAGCGACUG,0.471,0.122 / 0.0719 / 0.0369,0 / 0 / 0,0 / 0 / 0
UAAGCGAGAG,0.353,0.191 / 0.144 / 0.111,0 / 0.0504 / 0.0232,0 / 0 / 0
UAAGCGAGCG,0.183,0.0521 / 0.0539 / 0.0553,0 / 0 / 0,0 / 0 / 0
UAAGCGAGGG,0.379,0.104 / 0.0719 / 0.0369,0.0276 / 0 / 0.0232,0 / 0 / 0
UAAGCGAGUG,0.196,0.104 / 0.0539 / 0.0922,0.0276 / 0 / 0,0 / 0 / 0
UAAGCGAUAG,0.445,0.139 / 0.0719 / 0.0738,0 / 0 / 0.255,0 / 0 / 0
UAAGCGAUCG,0.366,0.139 / 0.0359 / 0.0369,0 / 0 / 0,0 / 0 / 0
UAAGCGAUGG,0.275,0.0348 / 0.144 / 0.0922,0 / 0 / 0.0464,0 / 0 / 0
UAAGCGAUUG,0.314,0.0869 / 0.126 / 0.0922,0 / 0 / 0,0 / 0 / 0
UAAGCGCAAG,0.157,0.712 / 0.736 / 0.738,0.0552 / 0.126 / 0.0464,0 / 0 / 0
UAAGCGCACG,0.222,0.139 / 0.0898 / 0.0369,0 / 0 / 0,0 / 0 / 0
UAAGCGCAGG,0.209,0.0521 / 0.0539 / 0.0184,0 / 0 / 0,0 / 0 / 0
UAAGCGCAUG,0.170,0.122 / 0.0898 / 0.0184,0.0552 / 0 / 0.0232,0 / 0 / 0
UAAGCGCCAG,0.118,0.104 / 0.144 / 0.0738,0.0276 / 0 / 0,0 / 0 / 0
UAAGCGCCCG,0.392,0.156 / 0.0719 / 0.0922,0 / 0 / 0,0 / 0 / 0
UAAGCGCCGG,0.131,0.0869 / 0.0898 / 0.0553,0 / 0 / 0,0 / 0 / 0
UAAGCGCCUG,0.288,0.0869 / 0.0898 / 0.0553,0 / 0 / 0.0464,0 / 0 / 0
UAAGCGCGAG,0.235,0.139 / 0.0898 / 0.203,0.414 / 0.757 / 0.0464,0.0180 / 0.0606 / 0.185
UAAGCGCGCG,0.157,0.0521 / 0.0539 / 0,0 / 0 / 0.0464,0 / 0 / 0
UAAGCGCGGG,0.209,0.156 / 0.198 / 0.0553,0 / 0 / 0,0 / 0 / 0
UAAGCGCGUG,0.183,0.0695 / 0.0719 / 0.184,0 / 0.0757 / 0,0 / 0 / 0
UAAGCGCUAG,0.170,0.104 / 0.0898 / 0.0553,0 / 0 / 0.0464,0 / 0 / 0
UAAGCGCUCG,0.183,0.0695 / 0.126 / 0.0369,0 / 0 / 0,0 / 0 / 0.0205
UAAGCGCUGG,0.157,0.139 / 0.0539 / 0.0738,0 / 0 / 0,0 / 0 / 0
UAAGCGCUUG,0.170,0.174 / 0.0719 / 0.0922,0.0552 / 0 / 0,0 / 0 / 0
UAAGCGGAAG,0.0784,0.434 / 0.808 / 0.627,0.110 / 0.0757 / 0.0464,0 / 0 / 0
UAAGCGGACG,0.209,0.643 / 0.772 / 0.498,0.0828 / 0.0504 / 0.116,0 / 0.0808 / 0.0205

Excerpt, the final 3 entries:

| sequence | pool | inoculated region | leaf margin | systemic leaves |
|---|---|---|---|---|
| UAAGCGCUUG | 0.170 | 0.174 / 0.0719 / 0.0922 | 0.0552 / 0 / 0 | 0 / 0 / 0 |
| UAAGCGGAAG | 0.0784 | 0.434 / 0.808 / 0.627 | 0.110 / 0.0757 / 0.0464 | 0 / 0 / 0 |
| UAAGCGGACG | 0.209 | 0.643 / 0.772 / 0.498 | 0.0828 / 0.0504 / 0.116 | 0 / 0.0808 / 0.0205 |

Source: Wu et al. 2024 (doi:10.1371/journal.ppat.1012142), supplementary data.